In general, koff refers to the rate constant with which the complex falls apart. For orientation: Kd means the constant that tells how readily two partners part at equilibrium. Read a low Kd as higher affinity.

The text below walks through data of publication PMC10409496 (2023).

Assay [1] concerns the target T1, Wuhan-Hu-1 SARS-CoV-2 S1([…]), S1^E484 (SARS-CoV-2 (Wuhan-Hu-1)). As to the kind of experiment: BLI.
The target of assay [2] is T1, Wuhan-Hu-1 SARS-CoV-2 S1([…]), S1^E484. The experiment in a line: BLI. The source holds these as a separate data set. For orientation: BLI is a label-free optical method that tracks binding on a fibre tip over time.

B1: TMEM106B luminal domain (TMEM106B^LD), […] of human TMEM106B (domain or fragment)
chain: not shown
modifications: glycosylated
B1 gave a koff in assay [1] of 1.6 s⁻¹. Further, the Kd in assay [2] turned out to be 46 µM.
